Results: US20140120113A1

Tests used:
[1] = biological target: HA of influenza virus A/Mallard/Astrakhan/263/1982 (H14) (Influenza A virus A/mallard/Astrakhan/263/1982 (H14N5)); test: cell-based or functional assay
[2] = biological target: HA of influenza virus A/New York/107/2003 (H7) (Influenza A virus A/New York/107/2003 (H7N7)); test: cell-based or functional assay

CR9114
geomean IC50, virus neutralization assay (VNA) [1]: > 100 µg/mL
geomean IC50, virus neutralization assay (VNA) [2]: > 100 µg/mL
